Experimental findings from patent US20220306729A1 (published 2022) are described below.

Assay [1] has as its target T1, DENV1 EDIII, polyhistidine-AviTag, made in HEK-293-6E cells (Dengue virus 1 (NC_001477)).
T1 construct: also called EDIII of DENV1
T1 chain: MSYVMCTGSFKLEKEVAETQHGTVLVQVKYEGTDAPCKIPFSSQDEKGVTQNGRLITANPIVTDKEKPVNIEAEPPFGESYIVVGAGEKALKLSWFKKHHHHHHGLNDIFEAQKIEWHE
In words: ELISA on DENV1 EDIII (FIG. 3D). (In general: In an ELISA, binding on a coated surface is turned into a signal by an enzyme label.)

The target of assay [2] is T1, DENV1 EDIII, polyhistidine-AviTag, made …. In words: ELISA on EDIII (Table A).
Assay [3] has as its target T2, WNV EDIII, polyhistidine-AviTag (West Nile virus).
T2 chain: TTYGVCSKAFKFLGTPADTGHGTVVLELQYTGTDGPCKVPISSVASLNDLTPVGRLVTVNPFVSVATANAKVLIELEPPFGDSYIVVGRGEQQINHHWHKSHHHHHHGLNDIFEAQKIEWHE
Kind of assay: ELISA on EDIII (Table A).

B1: Z004 (MEX18_89) (antibody, V domains shown)
VH: EVQLLESGGGLVQPGGSLRLTCATSGFTFRDYAMSWVRQAPGKGLEWVSSYSGIDDSTYYADSVKGRFTISRDNSKSTLSLHMNSLRAEDSALYFCAKDRGPRGVGELFDSWGQGTLVTVSS
VL: DIQMTQSPSTLSASVGDRVTITCRASQSISKWLAWYQQKPGKAPKLLIYTTSTLKSGVPSRFSGSGSGTEFTLTISSLQPDDFATYYCQHFYSVPWTFGQGTKVEIK
notes: also called biotin-Z004 (biotinylated form)
B1: the binding result in assay [1] is recorded as “binds”.

B2: Z061 (BRA112_36) (antibody, V domains shown)
VH: EVQLVESGGGVVQPGRSLRLSCAASGFTFSISTIHWVRQAPGKGLEYVVVISHDGNTKYYADSVKGRFIISRDNSKNTVFLQMNSLRPVDTAVYYCARGEVGYFDLWGRGTLVTVSS
VL: EIVLTQSPATLSLSPGERATLSCRASQSVSSFLAWYQQKPGQPPRLLIYDASTRATGIPARFSGSGSGTDFTLTISSLEPEDFAVYYCQQRSNWPPITFGQGTRLEIK
As to B2, the binding result in assay [2] and in assay [3] was “no binding” throughout.

B3: Z053 (BRA138_65) (antibody, V domains shown)
VH: QLQLQESGPGLVKPSETLSLTCTVSGGSISSYNYYWGWIRQPPGKGLEFIGSIYYTGSTYYNPSLRSRVTISVDTSKNQFSLKLTSVTAADTAVYYCARHGPGMGHNWYFDLWGRGTLVTVSS
VL: EIVLTQSPATLSLSPGERATLSCRASQSISSYLAWYQQKPGQAPRLLIYDASNRAPGIPARFSGSGSGTDFTLTISSLEPEDFAVYYCQQRSTWLTFGGGTKVEIK
With B3, the binding result in assay [2] and in assay [3] was “no binding” each time.

B4: Z051 (BRA138_59) (antibody, V domains shown)
VH: QVQLQESGPGLVKPSQTLSLTCTVSGVSISSGGYYYSWFRQLPGKGLEWIGHIYYTGNTHYNPSLRSRLTISVDTSKNQFSLKLSSVTAADTARYYCARAWCEYAAYCWFDPWGRGTLVTVSS
VL: EIVLTQSPGTLSLSPGERATLSCRASQSVTSSYLAWYQHKPGQAPRLLIYGASSRAPGIPDRFSGSGSGTDFTLTISRLEPEDFAVYWCQQYGRSPFTFGQGTKLEIK
For the molecule B4, the binding result in assay [2] and in assay [3] was “no binding” in each case.

B5: Z062 (BRA112_70) (antibody, V domains shown)
VH: EVQLVESGGGVVQPGRSLRLSCAASGFSFSSHAMYWVRQAPGKGLEWVAIVSYDGSTKNYADSVKGRFTISRDNSKNTIYLHLNSLRAEDTAVYFCAREVDGIYGYLHYWGQGTLVTVSS
VL: EIVLTQSPATLSLSPGERATLSCRARQNVRNFLAWYQQKPGQAPRLLIYDASNRATDIPARFSGSGSGTDFTLTISSLEPEDFAVYYCQQRSYSITFGQGTRLEIK
For the molecule B5, the binding result in assay [2] and in assay [3] was “no binding” throughout.
